Record: PubChem BioAssay AID504761 (Drosophila RNAi Screening Center, 2011)
The deposit covers about 22,000 reagents; shown is a random part of those that have a named target and a result. In the full data, 116 (0.52%) are marked active. 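Calls depend on retest data that are not deposited; infection was ranked per plate without normalising between plates; the unit of the infection score is not given.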 Raw values are not corrected between plates. Unmarked entries are inactive. Further read-outs or replicates are left out here. Not stated in the record: the amount of reagent, the time to read-out.

Test: 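Fly genes whose silencing reduces dengue virus type 2 infection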 (primary screen)
System: D.Mel-2 cells from Drosophila
Knock-down reagent: long dsRNA against Drosophila genes
Conditions: infection with dengue virus type 2; dose and infection time not stated
Detection: 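Per well on two replicate plates, imaging gave the percent of cells positive for viral envelope protein, ranked by infection, and a nuclear count of cells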
Reading the numbers: infection score: higher = more virus-infected cells; cell count: higher = more cells in the well
Hit rule: 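Very low infection ranking in both replicate wells (chance probability at most 0.065), then a retest showing infection dropped 1.5-fold or more at p below 0.05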
Calls: active = confirmed: knock-down lowers infection; inactive = not picked or not confirmed

What is on record for BaraC (Baramicin C) [DRSC03885]?
infection score, replicate 1: 2.01; cell count, replicate 1: 5828

With PGRP-SC1b (Peptidoglycan recognition protein SC1b) [DRSC07215], what does the deposit list?
infection score, replicate 1: 5.98; cell count, replicate 1: 6838

Which result is listed for Rcd4 (Reduction in Cnn dots 4) [DRSC02597]?
infection score, replicate 1: 3.27; cell count, replicate 1: 5897

With CG31544 (retired record) [DRSC12466], what was measured?
infection score, replicate 1: 3.19; cell count, replicate 1: 5991

How did the screen score Hex-A (Hexokinase A) [DRSC18259]?
infection score, replicate 1: 5.11; cell count, replicate 1: 6010

Which result is listed for Hex-A (Hexokinase A) [DRSC25354]?
infection score, replicate 1: 5.21; cell count, replicate 1: 6239

With Prosalpha2 (Proteasome alpha2 subunit) [DRSC16798], how do the results read?
infection score, replicate 1: 0.65; cell count, replicate 1: 464

For Prosalpha2 (Proteasome alpha2 subunit) [DRSC28078], how do the results read?
infection score, replicate 1: 0.44; cell count, replicate 1: 456

In a second layout: entries from further up.
{"gene": "Hex-A (Hexokinase A)", "DRSC id": "DRSC25354", "infection score, replicate 1": 5.21, "cell count, replicate 1": 6239}
{"gene": "Prosalpha2 (Proteasome alpha2 subunit)", "DRSC id": "DRSC16798", "infection score, replicate 1": 0.65, "cell count, replicate 1": 464}

Further reagents follow.
For Ptth (Prothoracicotropic hormone) [DRSC00356], how do the results read?
infection score, replicate 1: 12.7; cell count, replicate 1: 5973

For CG9727 [DRSC12585], what was measured?
infection score, replicate 1: 5.41; cell count, replicate 1: 5511

For CG9727 [DRSC28868], what was measured?
infection score, replicate 1: 19.2; cell count, replicate 1: 2966

For bap (bagpipe) [DRSC16908], what does the deposit list?
cell count, replicate 1: 472

With bap (bagpipe) [DRSC27201], what does the deposit list?
infection score, replicate 1: 23.5; cell count, replicate 1: 3774

With Cyp313a4 (Cytochrome P450 313a4) [DRSC16627], what was measured?
infection score, replicate 1: 3.27; cell count, replicate 1: 6239
